Values of other authors in patent US20220235325A1, “STIMULATION OF DENDRITIC CELL ACTIVITY BY HOMOTAURINE AND ANALOGUES THEREOF” (Therapeutic Solutions International, Inc., priority 2021, published 2022).

Tested on: M2 macrophages
Conditions: EGFR-positive cells loaded with low concentrations of antibody; cited from earlier work

cetuximab: anti-epidermal growth factor receptor (EGFR) monoclonal antibody (mAb)
IL-10 and VEGF production: further augmentation
